This experiment addresses ∆PcrG_((13–72)) (Pseudomonas aeruginosa strain 2192). In words: SPR. The following applies: domain or fragment.
As a reminder, the Kd is the constant that tells how readily two partners part at equilibrium. With “ΔPcrV_((1–158)) (from UniProt G3XD49 1-158)”, the dissociation constant (Kd) worked out at 42.8 µM. “ΔPcrV_((1–250)) (from UniProt G3XD49 1-250)”: the Kd came out at 21.8 µM. For “ΔPcrV_((128–250)) (from UniProt G3XD49 128-250)” the value was 95.1 µM; for “ΔPcrV_((159–294)) (from UniProt G3XD49 159-294)”, 0.806 µM.

The values are drawn from publication PMC3904411.
